± gives the expanded uncertainty stated by the source.
Test: xn = mol fraction of the nth substance listed
Conditions: 101 kPa, Liquid; for speed of sound: Sing-around technique in a fixed-path interferometer; for mass density: Vibrating tube method

CCCCOP(=O)(OCCCC)OCCCC [tributyl phosphate] + CCCCCCCCCCO
Conditions	mass density [kg/m3]	speed of sound [m/s]
298.15 K, x1 = 0.019	829.97 ± 0.45	1375 ± 3
298.15 K, x1 = 0.04	833.94 ± 0.44	1370 ± 3
298.15 K, x1 = 0.063	838.11 ± 0.44	1365 ± 3
298.15 K, x1 = 0.099	844.9 ± 0.4	1358 ± 3
298.15 K, x1 = 0.2	862.8 ± 0.4	1340 ± 3
298.15 K, x1 = 0.292	877.97 ± 0.4	1325 ± 3
298.15 K, x1 = 0.398	894.53 ± 0.38	1311 ± 3
298.15 K, x1 = 0.501	909.53 ± 0.37	1298 ± 3
298.15 K, x1 = 0.599	923.45 ± 0.36	1289 ± 3
298.15 K, x1 = 0.703	937.13 ± 0.35	1281 ± 3
298.15 K, x1 = 0.803	949.69 ± 0.34	1274 ± 3
298.15 K, x1 = 0.904	961.91 ± 0.32	1269 ± 3
298.15 K, x1 = 0.92	963.71 ± 0.33	1268 ± 3
298.15 K, x1 = 0.946	966.71 ± 0.33	1267 ± 3
298.15 K, x1 = 0.973	969.8 ± 0.3	1266 ± 3
298.15 K, x1 = 1	–	1265 ± 3
303.15 K, x1 = 0.019	826.54 ± 0.45	1358 ± 3
303.15 K, x1 = 0.04	830.48 ± 0.44	1353 ± 3
303.15 K, x1 = 0.063	834.63 ± 0.44	1348 ± 3
303.15 K, x1 = 0.099	841.37 ± 0.43	1341 ± 3
303.15 K, x1 = 0.2	859.15 ± 0.41	1323 ± 3
303.15 K, x1 = 0.292	874.23 ± 0.39	1308 ± 3
303.15 K, x1 = 0.398	890.68 ± 0.38	1294 ± 3
303.15 K, x1 = 0.501	905.61 ± 0.37	1281 ± 3
303.15 K, x1 = 0.599	919.44 ± 0.36	1273 ± 3
303.15 K, x1 = 0.703	933.04 ± 0.35	1264 ± 3
303.15 K, x1 = 0.803	945.53 ± 0.34	1257 ± 3
303.15 K, x1 = 0.904	957.67 ± 0.32	1252 ± 3
303.15 K, x1 = 0.92	959.45 ± 0.33	1251 ± 3
303.15 K, x1 = 0.946	962.44 ± 0.33	1250 ± 3
303.15 K, x1 = 0.973	965.51 ± 0.32	1249 ± 3
303.15 K, x1 = 1	–	1248 ± 3
308.15 K, x1 = 0.019	823.09 ± 0.45	1341 ± 3
308.15 K, x1 = 0.04	827.02 ± 0.44	1336 ± 3
308.15 K, x1 = 0.063	831.14 ± 0.44	1331 ± 3
308.15 K, x1 = 0.099	837.84 ± 0.42	1324 ± 3
308.15 K, x1 = 0.2	855.5 ± 0.4	1306 ± 3
308.15 K, x1 = 0.292	870.47 ± 0.39	1292 ± 3
308.15 K, x1 = 0.398	886.82 ± 0.38	1277 ± 3
308.15 K, x1 = 0.501	901.68 ± 0.37	1264 ± 3
308.15 K, x1 = 0.599	915.41 ± 0.36	1256 ± 3
308.15 K, x1 = 0.703	928.94 ± 0.34	1247 ± 3
308.15 K, x1 = 0.803	941.36 ± 0.34	1241 ± 3
308.15 K, x1 = 0.904	953.42 ± 0.32	1236 ± 3
308.15 K, x1 = 0.92	955.2 ± 0.3	1234 ± 3
308.15 K, x1 = 0.946	958.17 ± 0.32	1233 ± 3
308.15 K, x1 = 0.973	961.22 ± 0.32	1232 ± 3
308.15 K, x1 = 1	–	1231 ± 3
313.15 K, x1 = 0.019	819.63 ± 0.45	1324 ± 3
313.15 K, x1 = 0.04	823.54 ± 0.43	1319 ± 3
313.15 K, x1 = 0.063	827.64 ± 0.43	1314 ± 3
313.15 K, x1 = 0.099	834.29 ± 0.42	1307 ± 3
313.15 K, x1 = 0.2	851.83 ± 0.41	1289 ± 3
313.15 K, x1 = 0.292	866.71 ± 0.39	1275 ± 3
313.15 K, x1 = 0.398	882.96 ± 0.38	1260 ± 3
313.15 K, x1 = 0.501	897.74 ± 0.37	1248 ± 3
313.15 K, x1 = 0.599	911.39 ± 0.36	1239 ± 3
313.15 K, x1 = 0.703	924.84 ± 0.34	1231 ± 3
313.15 K, x1 = 0.803	937.19 ± 0.34	1224 ± 3
313.15 K, x1 = 0.904	949.17 ± 0.32	1219 ± 3
313.15 K, x1 = 0.92	950.94 ± 0.32	1218 ± 3
313.15 K, x1 = 0.946	953.89 ± 0.32	1216 ± 3
313.15 K, x1 = 0.973	956.92 ± 0.32	1215 ± 3
313.15 K, x1 = 1	–	1214 ± 3
318.15 K, x1 = 0.019	816.14 ± 0.45	1307 ± 3
318.15 K, x1 = 0.04	820.04 ± 0.43	1303 ± 3
318.15 K, x1 = 0.063	824.12 ± 0.43	1298 ± 3
318.15 K, x1 = 0.099	830.73 ± 0.42	1291 ± 3
318.15 K, x1 = 0.2	848.15 ± 0.41	1273 ± 3
318.15 K, x1 = 0.292	862.93 ± 0.39	1258 ± 3
318.15 K, x1 = 0.398	879.09 ± 0.38	1244 ± 3
318.15 K, x1 = 0.501	893.8 ± 0.4	1231 ± 3
318.15 K, x1 = 0.599	907.35 ± 0.35	1223 ± 3
318.15 K, x1 = 0.703	920.73 ± 0.34	1214 ± 3
318.15 K, x1 = 0.803	933.01 ± 0.33	1207 ± 3
318.15 K, x1 = 0.904	944.91 ± 0.32	1202 ± 3
318.15 K, x1 = 0.92	946.68 ± 0.32	1201 ± 3
318.15 K, x1 = 0.946	949.62 ± 0.32	1200 ± 3
318.15 K, x1 = 0.973	952.63 ± 0.32	1199 ± 3
318.15 K, x1 = 1	–	1198 ± 3
323.15 K, x1 = 0.019	812.64 ± 0.44	1291 ± 3
323.15 K, x1 = 0.04	816.52 ± 0.43	1286 ± 3
323.15 K, x1 = 0.063	820.57 ± 0.43	1281 ± 3
323.15 K, x1 = 0.099	827.14 ± 0.42	1274 ± 3
323.15 K, x1 = 0.2	844.46 ± 0.41	1256 ± 3
323.15 K, x1 = 0.292	859.14 ± 0.39	1242 ± 3
323.15 K, x1 = 0.398	875.2 ± 0.4	1227 ± 3
323.15 K, x1 = 0.501	889.85 ± 0.36	1215 ± 3
323.15 K, x1 = 0.599	903.31 ± 0.35	1206 ± 3
323.15 K, x1 = 0.703	916.62 ± 0.34	1198 ± 3
323.15 K, x1 = 0.803	928.83 ± 0.33	1191 ± 3
323.15 K, x1 = 0.904	940.66 ± 0.32	1186 ± 3
323.15 K, x1 = 0.92	942.42 ± 0.32	1185 ± 3
323.15 K, x1 = 0.946	945.33 ± 0.32	1183 ± 3
323.15 K, x1 = 0.973	948.33 ± 0.32	1182 ± 3
323.15 K, x1 = 1	–	1181 ± 3
